Experimental data: PubChem BioAssay AID493033 (ICCB-Longwood Screening Facility, Harvard Medical School, 2011)
This is a selection; strong and weak results do not stand in their true shares. The source made the active and inactive calls. No stated cut-off is given here; in the data, active means inhibition mostly above about 56% (no sharp cut-off); inactive means mostly below about 77%.

Chains of the proteins cited; added tags and fusions are not shown. Lines headed by an entry give the natural chain unless they say otherwise; changes in a name come on top.
UniProt P9WFX0: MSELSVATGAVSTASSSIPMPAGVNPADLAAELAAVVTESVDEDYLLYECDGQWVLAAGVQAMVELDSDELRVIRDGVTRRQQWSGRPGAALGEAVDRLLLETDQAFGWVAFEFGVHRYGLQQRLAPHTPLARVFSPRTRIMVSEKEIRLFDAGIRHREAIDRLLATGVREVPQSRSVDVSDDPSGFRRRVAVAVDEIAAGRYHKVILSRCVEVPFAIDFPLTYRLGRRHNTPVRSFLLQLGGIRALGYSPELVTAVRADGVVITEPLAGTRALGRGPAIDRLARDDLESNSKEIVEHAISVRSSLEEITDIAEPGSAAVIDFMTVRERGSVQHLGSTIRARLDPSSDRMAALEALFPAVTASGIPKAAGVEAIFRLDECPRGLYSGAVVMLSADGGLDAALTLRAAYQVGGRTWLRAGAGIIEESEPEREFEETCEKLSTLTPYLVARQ

Molecular target: Salicylate synthase (Mycobacterium tuberculosis (strain CDC 1551 / Oshkosh)) (UniProt P9WFX0)
Assay: MbtI salicylate synthase inhibitors, primary screen, biochemical, fluorescence intensity (AID 493033)
Details: purified MbtI enzyme, fluorescence intensity read-out; hits give high values; concentration not given here

SMILES	inhibition
CCN1C(=O)N(c2ccccc2)P(=S)(OC)c2cc3c(cc21)OCCO3 (stereo unspecified)	active: 94%
